Data source: PubChem BioAssay AID1259414 (Drosophila RNAi Screening Center, 2018)
Test: 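Fly genes that alter Wolbachia amount inside host cells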 (primary screen). Cell system: Drosophila JW18 cells infected with Wolbachia. Reagent: long dsRNA against Drosophila genes, 0.25 µg dsRNA per well of a 384-well plate. Duration: 5 days. Challenge: cells persistently infected with Wolbachia before knock-down; no added drug. Detection: 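Automated imaging of bacterial rRNA staining divided by host cell count, reported as plate-normalised robust z-score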. Reading the numbers: Wolbachia per cell robust z: higher = more Wolbachia per host cell than the plate typical. Rule for the call: 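Hit when robust z is 1.5 or more, or -1.5 or less, in at least two of three replicates; excludes dsRNAs with several or no targets, genes not expressed in JW18 and well A1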.
The deposit covers about 24,000 reagents; below is an unselected part of those with a known target gene and a result. Over the whole deposit, about 1,210 (5%) got an active call. 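Inactive calls also include excluded dsRNAs with several or no targets, genes unexpressed in JW18, and well A1, regardless of score.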 A plus sign joins genes that one reagent is predicted to hit.

CG10011 [SID104193966] showed Wolbachia per cell robust z, rep 1 = -0.911; Wolbachia per cell robust z, rep 2 = 1.15; Wolbachia per cell robust z, rep 3 = -0.751; inactive.
After knock-down of Femcoat [SID104197853] the results were Wolbachia per cell robust z, rep 1 = -0.00474; Wolbachia per cell robust z, rep 2 = 0.407; Wolbachia per cell robust z, rep 3 = -4.87; inactive.
Against Femcoat [SID104207336] the deposit lists Wolbachia per cell robust z, rep 1 = -6.25; Wolbachia per cell robust z, rep 2 = 0.665; Wolbachia per cell robust z, rep 3 = 0.862; inactive.
Against Andorra [SID104199267] the deposit lists Wolbachia per cell robust z, rep 1 = -0.111; Wolbachia per cell robust z, rep 2 = 0.243; Wolbachia per cell robust z, rep 3 = -0.475; inactive.
With knock-down of CG1552 [SID104199457] the results were Wolbachia per cell robust z, rep 1 = -0.377; Wolbachia per cell robust z, rep 2 = -0.449; Wolbachia per cell robust z, rep 3 = -0.557; inactive.
Knock-down of CG1552 [SID104204078] resulted in: Wolbachia per cell robust z, rep 1 = 0.553; Wolbachia per cell robust z, rep 2 = 1.82; Wolbachia per cell robust z, rep 3 = 1.21; inactive.
Depletion of dunk [SID104214090] resulted in: Wolbachia per cell robust z, rep 1 = -4.33; Wolbachia per cell robust z, rep 2 = -1.68; Wolbachia per cell robust z, rep 3 = -7.97; inactive.
dunk [SID104214091] scored Wolbachia per cell robust z, rep 1 = 0.128; Wolbachia per cell robust z, rep 2 = 0.000253; Wolbachia per cell robust z, rep 3 = -1.22; inactive.
With knock-down of I-2 [SID104190986], the screen gave Wolbachia per cell robust z, rep 1 = 0.989; Wolbachia per cell robust z, rep 2 = 0.253; Wolbachia per cell robust z, rep 3 = 2.14; inactive.
I-2 [SID104202657] showed Wolbachia per cell robust z, rep 1 = -2.87; Wolbachia per cell robust z, rep 2 = 0.299; Wolbachia per cell robust z, rep 3 = -0.554; inactive.
Depletion of RpS15Ab + RpS15Aa [SID104185921] came out at: Wolbachia per cell robust z, rep 1 = 2.91; Wolbachia per cell robust z, rep 2 = 2.57; Wolbachia per cell robust z, rep 3 = -3.98; inactive.
CG42366 [SID104182552] scored Wolbachia per cell robust z, rep 1 = 1.43; Wolbachia per cell robust z, rep 2 = 1.15; Wolbachia per cell robust z, rep 3 = 0.712; inactive.
CG42366 [SID104202654] scored Wolbachia per cell robust z, rep 1 = -3.98; Wolbachia per cell robust z, rep 2 = -0.614; Wolbachia per cell robust z, rep 3 = -0.771; inactive.

An excerpt from the list above, as a working copy:
I-2 [SID104202657] — Wolbachia per cell robust z, rep 1 = -2.87; Wolbachia per cell robust z, rep 2 = 0.299; Wolbachia per cell robust z, rep 3 = -0.554; activity call = inactive
RpS15Ab + RpS15Aa [SID104185921] — Wolbachia per cell robust z, rep 1 = 2.91; Wolbachia per cell robust z, rep 2 = 2.57; Wolbachia per cell robust z, rep 3 = -3.98; activity call = inactive
